Measured values from several laboratories, pooled; numbers as filed in NIAID ChemDB.

All rows: growth or infection tests

Zone: diameter of growth inhibition. Rows are shuffled and stem from different studies. Inhibition is in % at the dose shown (toxicity tests: loss of growth or viability). A number after MIC or MFC names an inhibition level or a share of isolates. Blank or dashed fields: not listed here. ECn is the concentration giving n% inhibition of infection, replication or growth.

smiles,organism,read by,cell line,measure,strain,tested at,value
Nc1nc2c(ncn2CCC(CO)COP(=O)(O)OP(=O)(O)OP(=O)(O)O)c(=O)[nH]1,Duck hepatitis B virus,,Primary duck hepatocytes,EC50,,,0.7 µM
CC[C@H]1OC(=O)[C@@](C)(F)C(=O)[C@H](C)[C@@H](O[C@@H]2O[C@H](C)C[C@H](N(C)C)[C@H]2O)[C@@]2(C)C[C@@H](C)C(=O)[C@H](C)[C@@H](OC/C(=N\OCc3ccc(-n4cccn4)nc3)CO2)[C@]1(C)O,Haemophilus influenzae,,,MIC,33929 (ampicillin-resistant),,4 µg/mL
O=C(NCc1ccc(Cl)cc1)c1cn2c3c(cc(CN4CCOCC4)cc3c1=O)OC(c1cccnc1)C2,Rhesus cytomegalovirus,plaque count,HFF,EC50,,,3 µM
Cc1cn([C@@H]2OC[C@H](CO)[C@H]2N=[N+]=[N-])c(=O)[nH]c1=O,Vesicular stomatitis virus,cytopathic effect,HeLa,EC50,,,>80 µg/mL
N#Cc1ccc(CSc2ncnc3c2ncn3[C@@H]2O[C@H](CO)[C@@H](O)[C@H]2O)cc1,Toxoplasma gondii,,,inhibition,RH (WILD TYPE),50 µM,100%
OC(CCn1ccnc1)c1ccc(-c2ccccc2)cc1,Candida kefyr,broth dilution,,MIC,RTCC 1019,,32 µg/mL
C/C=C/c1cn([C@@H]2O[C@H](CO)[C@@H](O)[C@@H]2O)c(=O)[nH]c1=O,Herpes simplex virus 1,plaque count,VERO,inhibition,TK-,250 µM,8%
CC1(C(=O)O)CCC2(C)CCC3(C)C(=CC(=O)C4C5(C)CCC(OC(=O)C6CCCCC6C(=O)O)C(C)(C)C5CCC43C)C2C1,Adenovirus,virus yield,,inhibition,TYPE 5,10 µM,25%
CCC(CC)[C@H](NC(C)=O)[C@@H]1C[C@@H](C(=O)O)C[C@H]1N=C(N)N,Influenza A virus,,MDCK,EC50,Influenza A/Sydney/05/97 (H3N2),,0.13 µM
O=C(CCn1ccnc1)c1cccc(O)c1,Candida kefyr,broth dilution,,MIC,RTCC 1074,,64 µg/mL
C=C/C(C)=C/[C@@]1(C)SC(=O)C(C)=C1O,Escherichia coli,,,MIC,UB1005 (TLM-S),,150 µM
Nc1ccn(C[C@@H](CO)OCP(=O)(O)O)c(=O)n1,Rat cytomegalovirus,plaque count,MRC-5,EC50,,,0.3 µM
CCC(CC)O[C@@H]1C=C(C(=O)O)C[C@H](N)[C@H]1NC(C)=O,Influenza A virus,visual reading,MDCK,EC50,H1N1 A/NWS/33,,57 µM
COc1ccc(Cc2cn(Cc3ccc(O)cc3)c(/N=C3/NC(=O)N(C)C3=O)n2)cc1,Saccharomyces cerevisiae,,,MIC,ATCC 18824,,>100 µg/mL
Cc1ccc(C(O)c2cccc(C(O)CCn3ccnc3)c2)cc1,Candida kefyr,broth dilution,,MIC,RTCC 1019,,16 µg/mL
Cn1cc(C(=O)NCc2ccc(Cl)cc2)c(=O)c2cc(CN3CCOCC3)ccc21,Varicella zoster virus,plaque count,HFF,inhibition,DI varicella isolate,1.4 µM,90%
OC(CCn1ccnc1)c1cccc(C(O)c2ccc(Br)cc2)c1,Candida kefyr,broth dilution,,MIC,RTCC 1019,,2 µg/mL
C[C@@H](c1nc(-c2ccc(C#N)cc2)cs1)[C@](O)(Cn1cncn1)c1cc(F)ccc1F,Cryptococcus gattii,broth dilution,,MIC90,,,0.125 µg/mL
CCC(C)n1ncn(-c2ccc(N3CCN(c4ccc(OC[C@H]5CO[C@](Cn6cncn6)(c6ccc(Cl)cc6Cl)O5)cc4)CC3)cc2)c1=O,Aspergillus ochraceus,agar diffusion,,zone,,10 µg/disc,20 mm
Nc1nc2c(ncn2CCC(CO)CO)c(=O)[nH]1,Human herpesvirus 7,antigen,HUMAN CORD BLOOD CELLS,EC50,SB,,>100 µM
Nc1nc2c(ncn2COC(CO)COP(=O)(O)OP(=O)(O)OP(=O)(O)O)c(=O)[nH]1,Duck hepatitis B virus,,Primary duck hepatocytes,EC50,,,4 µM
CC=NC(=N)c1nc(-c2cccc(OC)c2)n(C/C=C/c2ccccc2)n1,Coxsackie virus,cytopathic effect,HeLa,EC50,TYPE B4,,>10 µg/mL
Nc1nc2c(ncn2[C@H]2OC[C@@H](CO)C2O)c(=O)[nH]1,Vesicular stomatitis virus,cytopathic effect,HeLa,EC50,,,>80 µg/mL
CCC(CC)[C@H](NC(C)=O)[C@@H]1[C@H](O)[C@@H](C(=O)O)C[C@H]1N=C(N)N,Influenza A virus,,MDCK,EC50,H1N1 A/PR/8/34,,1.5 µM
COc1cc(OC)c2c(=O)cc(-c3ccccc3)oc2c1CC=C(C)C,Dengue virus,plaque count,LLC-MK2,inhibition,Type 2/Mexican isolate,12 µM,75%
Nc1nc2c(ncn2COC(CO)CO)c(=O)[nH]1,Cytomegalovirus,,MRC-5,EC50,295,,8.1 µM
Oc1ccc(/C=C/c2cc(O)cc(O)c2)cc1,Epstein-Barr virus,antigen,,inhibition,,27 µM,42%
O=C(NCc1ccc(Cl)cc1)c1c[nH]c2ccc(CCCO)cc2c1=O,Varicella zoster virus,plaque count,,EC50,Webster,,0.17 µM
Cc1cn([C@@H]2O[C@H](CO)[C@@H](O)[C@@H]2F)c(=O)nc1N,Varicella zoster virus,plaque count,HELF,inhibition,Ohtomo,0.001 µg/mL,52%
CC=NC(=N)c1nc(-c2cccc(C)c2)n(C/C=C/c2ccccc2)n1,Coxsackie virus,cytopathic effect,VERO,EC50,TYPE B4,,>10 µg/mL
Nc1nc(=O)n([C@@H]2O[C@H](CO)[C@@H](O)[C@@H]2F)cc1I,Varicella zoster virus,plaque count,HELF,inhibition,HIRAI,0.1 µg/mL,100%
Nc1ncnc2c1ncn2[C@H]1OC[C@@H](CO)C1O,Vesicular stomatitis virus,cytopathic effect,E6SM,EC50,,,>80 µg/mL
CC[C@H]1OC(=O)[C@@](C)(F)C(=O)[C@H](C)[C@@H](O[C@@H]2O[C@H](C)C[C@H](N(C)C)[C@H]2O)[C@@]2(C)C[C@@H](C)C(=NC(C)=O)[C@H](C)[C@@H](OC/C(=N\OCc3ccc(C(N)=O)s3)CO2)[C@]1(C)O,Streptococcus pneumoniae,,,MIC,700906 (erythromycin A-resistant),,<0.06 µg/mL
CC(=O)NC[C@H]1CN(c2ccc(-c3ccsc3)c(F)c2)C(=O)O1,Staphylococcus epidermidis,,,MIC,UC12084 (methicillin-resistant),,≤0.125 µg/mL
C/C=C/c1cn([C@H]2C[C@H](O)[C@@H](CO)O2)c(=O)[nH]c1=O,Herpes simplex virus 1,plaque count,VERO,inhibition,C42,0.1 µM,17%
O=c1[nH]c(=O)n([C@@H]2O[C@H](CO)[C@@H](O)[C@@H]2O)cc1/C=C/Cl,Varicella zoster virus,plaque count,HELF,inhibition,OKA,0.0001 µg/mL,7%
CC(=O)NC[C@H]1CN(c2ccc(-c3ccn(CCC#N)n3)c(F)c2)C(=O)O1,Staphylococcus epidermidis,,,MIC,UC12084 (methicillin-resistant),,2 µg/mL
O=c1[nH]c(=O)n([C@H]2C[C@H](O)[C@@H](CO)O2)cc1I,Varicella zoster virus,plaque count,HELF,inhibition,KANNO,1 µg/mL,25%
CCCCCCCCCCCCCCCCOCCCOP(=O)(O)CO[C@H](CO)Cn1ccc(N)nc1=O,Rat cytomegalovirus,plaque count,MRC-5,EC50,,,0.004 µM
CC(=O)NC[C@H]1CN(c2ccc(-c3cnc(C(C)=O)s3)c(F)c2)C(=O)O1,Staphylococcus epidermidis,,,MIC,UC12084 (methicillin-resistant),,≤0.125 µg/mL
CC=NC(=N)c1nc(-c2ccc(OC)cc2)n(C/C=C/c2ccccc2)n1,Coxsackie virus,cytopathic effect,HeLa,EC50,TYPE B4,,>400 µg/mL
CC[C@H]1OC(=O)[C@@](C)(F)C(=O)[C@H](C)[C@@H](O[C@@H]2O[C@H](C)C[C@H](N(C)C)[C@H]2O)[C@@]2(C)C[C@@H](C)C(=NC(C)=O)[C@H](C)[C@@H](OC/C(=N/OCc3ccc(-c4cccc(N)n4)s3)CO2)[C@]1(C)O,Haemophilus influenzae,,,MIC,33929 (ampicillin-resistant),,4 µg/mL
Cc1cn([C@@H]2O[C@H](CO)[C@@H](O)[C@@H]2O)c(=O)[nH]c1=O,Varicella zoster virus,plaque count,HELF,inhibition,KANNO,0.1 µg/mL,99%
C=C(N=CC)c1nc(-c2ccccc2)n(C2O[C@H](CO)[C@@H](O)[C@H](O)[C@H]2O)n1,Coxsackie virus,cytopathic effect,HeLa,EC50,TYPE B4,,>200 µg/mL

Repeating the final 7 entries:

smiles,organism,read by,cell line,measure,strain,tested at,value
O=c1[nH]c(=O)n([C@H]2C[C@H](O)[C@@H](CO)O2)cc1I,Varicella zoster virus,plaque count,HELF,inhibition,KANNO,1 µg/mL,25%
CCCCCCCCCCCCCCCCOCCCOP(=O)(O)CO[C@H](CO)Cn1ccc(N)nc1=O,Rat cytomegalovirus,plaque count,MRC-5,EC50,,,0.004 µM
CC(=O)NC[C@H]1CN(c2ccc(-c3cnc(C(C)=O)s3)c(F)c2)C(=O)O1,Staphylococcus epidermidis,,,MIC,UC12084 (methicillin-resistant),,≤0.125 µg/mL
CC=NC(=N)c1nc(-c2ccc(OC)cc2)n(C/C=C/c2ccccc2)n1,Coxsackie virus,cytopathic effect,HeLa,EC50,TYPE B4,,>400 µg/mL
CC[C@H]1OC(=O)[C@@](C)(F)C(=O)[C@H](C)[C@@H](O[C@@H]2O[C@H](C)C[C@H](N(C)C)[C@H]2O)[C@@]2(C)C[C@@H](C)C(=NC(C)=O)[C@H](C)[C@@H](OC/C(=N/OCc3ccc(-c4cccc(N)n4)s3)CO2)[C@]1(C)O,Haemophilus influenzae,,,MIC,33929 (ampicillin-resistant),,4 µg/mL
Cc1cn([C@@H]2O[C@H](CO)[C@@H](O)[C@@H]2O)c(=O)[nH]c1=O,Varicella zoster virus,plaque count,HELF,inhibition,KANNO,0.1 µg/mL,99%
C=C(N=CC)c1nc(-c2ccccc2)n(C2O[C@H](CO)[C@@H](O)[C@H](O)[C@H]2O)n1,Coxsackie virus,cytopathic effect,HeLa,EC50,TYPE B4,,>200 µg/mL